This passage reports stoichiometry N results from paper PMC6250670, “Identifying the region responsible for Brucella abortus MucR higher-order oligomer formation and examining its role in gene regulation” (2018).

This assay addresses MucR_(33-142) deletion mutant (Brucella abortus). Briefly: SEC-MALS. On the technique in general: SEC sorts molecules by how far they enter the pores of the column.

A word on the stoichiometry N: it is a count of units in the complex or per binding partner.

In the case of “MucR_(33-142) deletion mutant (domain or fragment)”, the stoichiometry N stood at 10.5.
